Pooled drug test results. Numbers come from NIAID ChemDB, via PubChem.

Common to all: growth or infection tests; organism: Mycobacterium tuberculosis

ECn is the concentration giving n% inhibition of infection, replication or growth.

compound | strain or isolate | measure | tested at | read by | result
NC(Cc1ccc(O)c(Br)c1Br)C(=O)O | H37Rv | MIC |  |  | >100 µg/mL
CO[C@H]1/C=C/O[C@@]2(C)Oc3c(C)c(O)c4c(O)c(c5c(c4c3C2=O)NC2(CCN(CC(C)C)CC2)N=5)=NC(=O)/C(C)=C\C=C\[C@H](C)[C@H](O)[C@@H](C)[C@@H](O)[C@@H](C)[C@H](OC(C)=O)[C@@H]1C | 2749 (rifampin-sensitive) | MIC |  |  | 0.05 µg/mL
OC[C@H]1N[C@H](CO[C@@H]2O[C@H](CO)[C@@H](O)[C@H](O)[C@H]2O)[C@H](O)[C@@H](O)[C@@H]1O | H37Rv | MIC |  | BACTEC | ≥12.5 µg/mL
c1ccc(CCCNCCNC(c2ccccc2)c2ccccc2)cc1 |  | MIC |  |  | 50 µM
CCOC(=O)Nc1cc(NC/C(=C\O)c2ccc(OC)c(OC)c2OC)c([N+](=O)[O-])c(N)n1 | H37Rv | inhibition | 12.5 µg/mL |  | 0%
C[C@@H]1[C@@H](NCCNC(c2ccccc2)c2ccccc2)C[C@H]2C[C@@H]1C2(C)C |  | MIC |  |  | 50 µM
COC(=O)C1Cc2c([nH]c3ccccc23)C2CCC(=O)N12 | H37Rv | MIC bound |  | resazurin | >6.25 µg/mL
Cc1ccc(C)n1-c1ccc([N+](=O)[O-])cc1 | H37Rv | MIC |  |  | >100 µg/mL
CCOC(=O)c1cc2c(Cl)c(Cl)c(Cl)c(Cl)n2n1 | H37Rv | inhibition | 6.25 µg/mL | resazurin | 39%
CC(C)N=c1cc2n(-c3ccc(Cl)cc3)c3ccccc3nc-2cc1Nc1ccc(Cl)cc1 | MDR23 | MIC |  | broth dilution / resazurin | 16 µg/mL
C=CCNc1nc(NC(=O)OCC)cc(NC(=O)OCC)c1[N+](=O)[O-] | H37Rv | EC50 |  |  | >12.5 µg/mL
CC(CNCCc1ccccc1F)NCC12CC3CC(CC(C3)C1)C2 |  | MIC |  |  | 25 µM
NC1CCN(c2nc3c(cc2F)c(=O)c(C(=O)O)cn3-c2ccc(F)cc2F)C1 | ATCC 35826 | MBC |  |  | 8 µg/mL
CCOc1ccccc1CNCCN[C@@H]1C[C@@H]2C[C@H]([C@H]1C)C2(C)C |  | MIC |  |  | 50 µM
COc1ccc2c(c1)Sc1c(ccc3ccccc13)N2CCCN(C)C | H37Rv | inhibition | 12.5 µg/mL | BACTEC | 98%
O=C1C[C@@H](c2ccc(O)cc2)Oc2c1c(O)cc(O[C@@H]1O[C@H](CO)[C@@H](O)[C@H](O)[C@H]1O)c2[C@H]1C(=O)c2c(O)cc(O)cc2O[C@@H]1c1ccc(O)cc1 | H37Rv | EC50 |  |  | >12.5 µg/mL
CC[C@H]1OC(=O)[C@H](C)[C@@H](O[C@H]2C[C@@](C)(OC)[C@@H](O)[C@H](C)O2)[C@H](C)[C@@H](O[C@@H]2O[C@H](C)C[C@H](N(C)C)[C@H]2O)[C@](C)(O)C[C@@H](C)CN(C)[C@H](C)[C@@H](O)[C@]1(C)O | DRUG-SUS | MBC90 |  |  | >8 µg/mL
COC(=O)C(=O)C1CCc2c(C(=O)OC)nc3[nH]n(-c4ccccc4)c(=O)c3c21 | H37Rv | MIC |  | BACTEC | ≥12.5 µg/mL
CO[C@H]1/C=C/O[C@@]2(C)Oc3c(C)c(O)c4c(=O)c(c5oc6cc(N7CCN(CC(C)C)CC7)cc(=O)c6nc5c4c3=C2O)NC(=O)/C(C)=C\C=C\[C@H](C)[C@H](O)[C@@H](C)[C@@H](O)[C@@H](C)[C@H](OC(C)=O)[C@@H]1C | 2275 (rifampin-resistant) | MBC |  |  | 0.2 µg/mL
CN(CC(=O)c1ccccc1)c1ccccc1 | H37Rv | MIC |  |  | >100 µg/mL
O=C(O)CN1C(=O)C2C3CCC(O3)C2C1=O | H37Rv | MIC bound |  | BACTEC | >12.5 µg/mL
CC(NCCN[C@@H]1C[C@@H]2C[C@H]([C@H]1C)C2(C)C)c1cccc2ccccc12 |  | MIC |  |  | 50 µM
CC#CC#C/C=C1\C=CC2(OC=CC2OC(C)=O)O1 | H37Rv | inhibition | 12.5 µg/mL | BACTEC | 98%
CC1CCC(NCCNc2cccc3ncccc23)CC1 |  | MIC |  |  | 3.13 µM
c1cncc(-c2cccnc2)c1 | H37Rv | MIC |  |  | >100 µg/mL
CCCCCCCCCCCNCCN[C@H](CO)Cc1ccc(Cl)cc1 |  | MIC |  |  | 25 µM
COc1cc(CNCCNCc2ccccc2)cc(OC)c1OC |  | MIC |  |  | 50 µM
O=C(c1ccccc1)c1ccsc1 | H37Rv | MIC |  |  | >100 µg/mL
CCOC(=O)Nc1cc(NC/C(=C\O)CN(C)c2ccccc2)c([N+](=O)[O-])c(N)n1 | H37Rv | EC50 |  |  | >12.5 µg/mL
CCOC(=O)C(C(=O)Nc1ccccc1)C(=O)c1ccccc1 | H37Rv | MIC |  |  | >100 µg/mL
CC(NCCNC1CCCCCCC1)c1cccc2ccccc12 |  | MIC |  |  | 25 µM
CC(=O)c1c(O)c(C)c(O)c2c1OC1=Cc3onc(C)c3C(=O)C12C | H37Rv | MIC bound |  | BACTEC | >12.5 µg/mL
Nc1ccc2cc(S(=O)(=O)O)cc(S(=O)(=O)O)c2c1N | H37Rv | MIC |  |  | 100 µg/mL
CCCCC(CC)CN1CN(CC(CC)CCCC)CC(C)(NCCN[C@@H]2C[C@@H]3C[C@H]([C@H]2C)C3(C)C)C1 |  | MIC |  |  | 50 µM
c1ccc(CCCCNCCNCCCc2ccccc2)cc1 |  | MIC |  |  | 25 µM
CO[C@H]1/C=C/O[C@@]2(C)Oc3c(C)c(O)c4c(O)c(c(/C=N/N5CCN(C)CC5)c(O)c4c3C2=O)NC(=O)/C(C)=C\C=C\[C@H](C)[C@H](O)[C@@H](C)[C@@H](O)[C@@H](C)[C@H](OC(C)=O)[C@@H]1C | TN644 | MIC |  |  | >32 µg/mL
O=c1ccc(=O)c2c(=O)c3cc4[nH]c5ccccc5[nH]c4cc3c(=O)c12 | H37Rv | MIC bound |  | BACTEC | >12.5 µg/mL
O=C1C(c2ccccc2)C(=O)C2C3C=CC(C3)C12 | H37Rv | MIC |  |  | >100 µg/mL
O=C1CCCN1CCCNCCNCCCc1ccccc1 |  | MIC |  |  | 50 µM
O=C(NCc1ccccc1)Nc1nc(-c2ccccc2)c(-c2ccccc2)nc1C(=O)NCc1ccccc1 | H37Rv | MIC bound |  | BACTEC | >12.5 µg/mL
O=C1C(Cl)=C(Cl)C(=O)c2ccccc21 | H37Rv | MIC |  |  | 100 µg/mL
O=C1S/C(=C2/C(=O)N(CN3CCOCC3)c3ccccc32)C(=O)N1CN1CCOCC1 | H37Rv | inhibition | 12.5 µg/mL | BACTEC | 0%
c1ccc2c(c1)CC(NCCNC13CC4CC(CC1C4)C3)C2 |  | MIC |  |  | 50 µM
O=C(O)CN(CCO)c1ccccc1 | H37Rv | MIC |  |  | >100 µg/mL
O=C1CC(c2ccccc2)Oc2ccc(Br)cc21 |  | inhibition | 12.5 µg/mL |  | 8%
Br.CCSC(=N)N | H37Rv | MIC |  |  | >100 µg/mL
O=C(O)c1c(C(=O)O)c2cccn2c2c1cnn2-c1ccccc1 | H37Rv | MIC bound |  | resazurin | >6.25 µg/mL
COC(=O)c1cc(O)ccc1O | H37Rv | MIC |  |  | >100 µg/mL
NC(=S)N/N=C/c1cn(Cc2ccccc2)c2ccccc12 | H37Rv | MIC |  | resazurin | 1.56 µg/mL
CCCCC(CC)CN1CN(CC(CC)CCCC)CC(C)(NCCNCC(O)c2ccccc2)C1 |  | MIC |  |  | 12.5 µM
O=C1CC(c2ccccc2)Oc2cc(Cl)ccc21 | H37Rv | inhibition | 12.5 µg/mL |  | 0%
CO[C@H]1/C=C/O[C@@]2(C)Oc3c(C)c(OC(C)=O)c4c(c3C2=O)C(=O)C=C(NC(=O)/C(C)=C\C=C\[C@H](C)[C@H](O)[C@@H](C)[C@@H](O)[C@@H](C)[C@H](OC(C)=O)[C@@H]1C)C4=O | H37Rv | MIC |  | BACTEC | <0.025 µg/mL
CNc1cccc2c1C(=O)c1cccc(NC)c1C2=O | H37Rv | MIC |  |  | >100 µg/mL
Cc1cc2c(cc1C)-c1c(oc3cc(C)c(C)cc13)-c1ccccc1C(=O)O2 | H37Rv | MIC |  | BACTEC | ≥12.5 µg/mL
O=C(O)c1ccc(=O)[nH]c1 | H37Rv | MIC |  |  | >100 µg/mL
CCCCCCCCCCCNCCNCCc1ccccc1OC |  | MIC |  |  | 25 µM
CCOC(=O)Nc1cc(NC(CC)C(=O)c2ccccc2)c([N+](=O)[O-])c(N)n1 | H37Rv | inhibition | 12.5 µg/mL |  | 0%
Cc1ccc(/C(O)=C/c2nc3c(nc2NC24CC5CC(CC(C5)C2)C4)c(=O)oc2ccccc23)cc1 | H37Rv | inhibition | 12.5 µg/mL | BACTEC | -4%
CN[C@@H]1[C@H](O[C@H]2[C@H](O[C@H]3[C@H](O)[C@@H](O)[C@H](N=C(N)N)[C@@H](O)[C@@H]3N=C(N)N)O[C@@H](C)[C@]2(O)C=O)O[C@@H](CO)[C@H](O)[C@H]1O | ATCC 35827 (kanamycin-resistant) | MIC |  |  | 8 µg/mL
CC1=CC(=O)CC(C)C1 | H37Rv | MIC |  |  | >100 µg/mL
CC1COc2c(N3CCN(C)CC3)c(F)cc3c(=O)c(C(=O)O)cn1c23 | ATCC 35820 | MIC |  |  | 0.5 µg/mL
O=C(O)c1ccc(Cl)s1 | H37Rv | MIC |  |  | 50 µg/mL
OCCNCCNCCC(c1ccccc1)c1ccccc1 |  | MIC |  |  | 50 µM
O=C1CSC(c2ccc(Cl)c(Cl)c2)N1c1nncs1 | H37Rv | MIC bound |  | BACTEC | >12.5 µg/mL
CC1CN(c2cc3c(cc2F)c(=O)c(C(=O)O)cn3-c2ccc(F)cc2F)CCN1 | ATCC 35830 | MIC |  |  | 0.5 µg/mL
O=C(SSC(=O)c1ccco1)c1ccco1 | H37Rv | MIC |  |  | 50 µg/mL
O=C(/C=C/c1ccccc1)c1ccco1 |  | EC50 |  |  | <12.5 µg/mL
CCC(C)(C)NCCNCc1cccc(F)c1 |  | MIC |  |  | 50 µM
CCOC(=O)Nc1cc(N[C@@H](C)[C@H](O)c2ccccc2)c([N+](=O)[O-])c(N)n1 | H37Rv | EC50 |  |  | >12.5 µg/mL
CC(=O)CC(=O)Nc1ccc(C)cn1 | H37Rv | MIC |  |  | >100 µg/mL
N=C(N)c1ccc(-c2ccc(-c3ccc(C(=N)N)cc3)o2)cc1 | H37Rv | MIC bound |  | BACTEC | >12.5 µg/mL
C[C@@H]1O[C@@H](OC[C@H]2O[C@@H](Oc3c(-c4ccc(O)c(O)c4)oc4cc(O)cc(O)c4c3=O)[C@H](O)[C@@H](O)[C@@H]2O)[C@H](O)[C@H](O)[C@H]1O | H37Rv | MIC |  |  | >100 µg/mL
Cc1ccc(N=NC2Sc3nc4ccccc4n3C2=O)cc1 | H37Rv | MIC |  | BACTEC | ≥12.5 µg/mL
NC1CCN(c2c(F)cc3c(=O)c(C(=O)O)cn(C4CC4)c3c2Cl)C1 | ATCC 35828 | MBC |  |  | 0.125 µg/mL
NC(=O)CCCCC1CCSS1 | H37Rv | MIC |  | BACTEC | 6.25 µg/mL
CC1=N/C(=C\c2ccccc2)C(=O)O1 | H37Rv | MIC |  |  | >100 µg/mL

A number after MIC or MFC names an inhibition level or a share of isolates. An empty or dashed field is not shown. MIC bound: limit read from a one-dose screen. Inhibition is in % at the dose shown (toxicity tests: loss of growth or viability). Lines come from different laboratories, so protocols vary.